A mixed list of measured activities; the numbers were collected in NIAID ChemDB.

Shared fields: growth or infection tests; species: Mycobacterium tuberculosis

Percent inhibition refers to the dose given; in toxicity tests it is the harm to the cells. Blank or dashed fields: not listed here. MIC bound: limit read from a one-dose screen. ECn is the concentration giving n% inhibition of infection, replication or growth. A number after MIC or MFC names an inhibition level or a share of isolates. Rows are shuffled and stem from different studies.

structure,dose,measure,read by,mutations,conditions,strain,result
CC(CN1c2ccccc2Sc2ccccc21)N(C)C,-,MIC,-,-,-,H37Rv,32 µg/mL
C=C(C)[C@@H]1CC[C@]2(C=O)CC[C@]3(C)[C@H](CC[C@@H]4[C@@]5(C)CC[C@H](O)C(C)(C)[C@@H]5CC[C@]43C)[C@@H]12,-,MIC,-,-,-,-,25 µg/mL
COC(=O)C(O)(C(=O)OC)C1=C(N)C(=O)c2ccccc2C1=O,6.25 µg/mL,inhibition,resazurin,-,-,H37Rv,5%
Cc1cc(C2=NOC(c3c(Cl)cccc3Cl)C2)ccc1O,-,MIC,-,-,-,INH-resistant M. tuberculosis,2.9 µM
COC(=O)COC(=O)C1C(C(N)=O)N(CC(=O)OC)CCN1CC(=O)OC,-,MIC,BACTEC,-,-,H37Rv,≥12.8 µg/mL
Cc1cc(C2=NOC(c3ccccc3Cl)C2)ccc1O,-,MIC,-,-,-,INH-resistant M. tuberculosis,0.83 µM
O=C(Nc1ccc(F)cc1)c1cc(Cl)ccc1OS(=O)(=O)c1ccccc1,-,MIC,-,-,14 d,H37Rv,8 µM
Cc1c(F)c(N2CCNC(C)C2)cc2c1c(=O)c(C(=O)O)cn2C1CC1,-,MIC,-,-,-,H37Rv,1 µg/mL
COC(=O)c1nc2c(N)nc(-c3ccccc3)nc2nc1N,12.5 µg/mL,inhibition,BACTEC,-,-,H37Rv,-5%
CN1CCN(CCCN2c3ccccc3Sc3ccc(Cl)cc32)CC1,-,MIC,-,-,-,H37Rv,16 µg/mL
CC(=O)/C(N=Nc1ccc(C(=O)N/N=C/c2ccc(O)cc2)cc1)=C(\C)O,12.5 µg/mL,inhibition,-,-,-,H37Rv,52%
CCN(CC)CCNc1ccc([N+](=O)[O-])c2sc3cc(Cl)ccc3c(=O)c12,-,MIC bound,BACTEC,-,-,H37Rv,≤12.5 µg/mL
NNC(=O)c1ccncc1,-,MIC,-,-,-,H37Rv,<0.05 µg/mL
CC1(C)Nc2ccccc2C(=S)N1c1ccc(Cl)c(Cl)c1,-,MIC,-,-,-,My 331/88,62.5 µg/mL
CCn1cc(C(=O)O)c(=O)c2cc(F)c(N3CCN(c4nnc(SCC(=O)c5ccc(OC)cc5)s4)C(C)C3)c(OC)c21,20 µg/mL,inhibition,broth dilution,-,-,H37Rv,0%
O=C(Cc1csc2nc(-c3ccccc3)cn12)N/N=C/c1c(Cl)cccc1Cl,12.5 µg/mL,inhibition,-,-,-,H37Rv,17%
CNC(=O)CCC(C)[C@H]1CCC2C3C(C[C@H](OC(C)=O)[C@@]21C)[C@@]1(C)CCC2(C[C@H]1C[C@H]3OC(C)=O)OOC1(CCC(c3ccccc3)CC1)OO2,-,MIC,-,-,-,-,>6.25 µg/mL
Cc1nc(-c2nc(C(=O)NCCC[S+](C)C)cs2)cs1.[Cl-],12.8 µg/mL,inhibition,BACTEC,-,-,H37Rv,3%
Cc1cc(C2=NOC(c3ccc(Br)cc3)C2)ccc1O,-,MIC,-,-,-,INH-resistant M. tuberculosis,0.62 µM
COc1c(N2CCNC(C)C2)c(F)cc2c(=O)c(C(=O)O)cn(C3CC3)c12,-,MIC,-,-,-,H37Rv,0.12 µg/mL
C=C(C)[C@@H]1CC[C@]2(C(=O)O)CC[C@]3(C)C(CCC4[C@@]5(C)[C@H](C=O)[C@@H](O)C(C)(C)[C@@H]5CC[C@]43C)C12,-,MIC,-,-,-,-,50 µg/mL
CN1N=C(c2ccncc2)OC1c1ccc(Cl)cc1Cl,-,MIC,-,-,-,6 PI,>20 µg/mL
O=C(Nc1cccc(F)c1)c1ccc(Cl)cc1OS(=O)(=O)c1ccccc1,-,MIC,-,-,21 d,H37Rv,16 µM
C=C(COC(C)=O)C1Cc2cc(O)c(C(C)=O)cc2O1,-,MIC,-,-,-,H37Rv (ATCC 27294),64 µg/mL
N[C@@H]1CN(c2c(F)cc3c(=O)c(C(=O)O)cn([C@@H]4C[C@@H]4F)c3c2Cl)CC12CC2,-,MIC,-,-,-,H37Rv,0.25 µg/mL
CC(=O)/C(N=Nc1ccc(C(=O)N/N=C/c2ccc([N+](=O)[O-])o2)cc1)=C(\C)O,-,EC50,-,-,-,H37Rv,<12.5 µg/mL
Cc1ccc(NC(=O)Nc2ccccc2Cl)cc1Cl,-,MIC bound,BACTEC,-,-,H37Rv,>12.5 µg/mL
NC(=O)CSc1ncnc2c1cnn2COCC(O)CO,-,MIC,-,-,-,H37Rv,>6.25 µg/mL
NNC(=O)c1ccncc1,-,MIC,resazurin,DG167-resistant,-,DRM167 16x6,0.19 µM
COC(=O)Nc1cccc(-c2nc3ccc(NC(=O)OC)cc3c(=O)n2-c2ccccc2)c1,-,MIC bound,BACTEC,-,-,H37Rv,>12.5 µg/mL
CN1N=C(c2ccncc2)OC1c1ccccc1,-,MIC,-,-,-,H37Rv,>20 µg/mL
O=C(NCCO)C(=O)N/N=C/c1ccc([N+](=O)[O-])o1,-,MIC,-,-,-,H37Rv,6.3 µg/mL
CCN=c1cc2n(-c3ccc(Cl)cc3)c3ccccc3nc-2cc1Nc1ccc(Cl)cc1,-,MIC,-,-,-,MTB12 (PZA-resistant),0.06 µg/mL
NC(=O)CCCc1ccc2oc3ccccc3c2c1,-,MIC bound,BACTEC,-,-,H37Rv,>12.5 µg/mL
CC(C)N=c1cc2n(-c3ccc(Cl)cc3)c3ccccc3nc-2cc1Nc1ccc(Cl)cc1,-,MIC,-,-,-,H37Rv,0.12 µg/mL
S=C1NCCNC(=S)SSC(=S)SS1,-,MIC,BACTEC,-,-,H37Rv,3.13 µg/mL
COc1ccc(C2CC(c3ccc(O)c(C)c3)=NO2)cc1,-,MIC,-,-,-,INH-resistant M. tuberculosis,>6.25 µM
CC(Sc1ncnc2c1cnn2COCC(O)CO)C(N)=O,-,MIC,-,-,-,H37Rv,>6.25 µg/mL
COc1cc(OC)c2c(c1)OC(=O)C(C(C)=O)C2,-,MIC bound,BACTEC,-,-,H37Rv,>12.5 µg/mL
Cc1ccccc1OC/C(N)=N\NC(=O)c1ccncc1,-,MIC,-,-,-,INH-r,100 µg/mL
CCn1cc(C(=O)O)c(=O)c2cc(F)c(N3CCN(C)CC3)cc21,-,MIC,-,-,-,H37Rv,8 µg/mL
Cc1cccc(OC/C(N=Cc2ccncc2)=N\NC(=O)c2ccncc2)c1,-,MIC,-,-,-,H37Rv(ATCC25584),50 µg/mL
O=c1[nH]c2cn(-c3ccccc3)nc2c(=O)n1O,6.25 µg/mL,inhibition,resazurin,-,-,H37Rv,36%
Clc1ccc(Nc2cc3nc4ccccc4n(-c4ccc(Cl)c(Cl)c4)c-3cc2=NC2CCNCC2)cc1Cl,-,MIC,-,-,-,H37Rv,0.12 µg/mL
C=C(C)[C@@H]1CC[C@]2(C(=O)O)CC[C@]3(C)C(CCC4[C@@]5(C)C[C@@H](OC(=O)/C=C/c6ccc(O)cc6)[C@H](O)C(C)(C)[C@@H]5CC[C@]43C)C12,-,MIC,-,-,-,-,12.5 µg/mL
CN1N=C(c2ccncc2)OC1c1ccc(Cl)c(Cl)c1,-,MIC,-,-,-,16PI,5 µg/mL
COc1cc2c(c(OC)c1OC)-c1ccc(OC)c(=O)cc1C(NC1=C(Cl)C(=O)c3ccccc3C1=O)CC2,-,MIC bound,BACTEC,-,-,H37Rv,≤12.5 µg/mL
O=C(Cc1csc2nc(-c3ccccc3)cn12)N/N=C/c1cccs1,-,MIC,-,-,-,H37Rv,>12.5 µg/mL
COC1=C(C)C(=O)c2cc(=O)n(C)cc2C1=O,-,MIC,-,-,-,Streptomycin-resistant,1.56 µg/mL
Cc1cc(C)c(NC(=O)c2cnccn2)c(=O)o1,-,MIC bound,BACTEC,-,-,H37Rv,>6.25 µg/mL
CCn1cc(C(=O)O)c(=O)c2cc(F)c(N3CCN(c4nnc(SCC(=O)c5ccc(C)cc5)s4)C(C)C3)c(OC)c21,20 µg/mL,inhibition,broth dilution,-,-,H37Rv,0%
Cc1cc(C2=NOC(c3ccc(Cl)cc3)C2)ccc1O,-,MIC,-,-,-,INH-resistant M. tuberculosis,0.93 µM
CC(C)=CCOc1c2ccoc2cc2oc(=O)ccc12.NNC(=O)c1ccncc1,-,MIC100,agar,Isoniazid rifampicin ethambutol-resistant,-,H37Rv clinical isolate CRY8,1.56 µg/mL
O=C(Nc1ccccc1)OCCN=C1c2ccccc2C(Br)C(Br)c2ccccc21,-,MIC bound,BACTEC,-,-,H37Rv,>12.5 µg/mL
NC(=O)c1cnccn1,-,MIC,-,-,-,Isolate K10428,>500 µg/mL
CC(=O)/C(N=Nc1ccc(C(=O)N/N=C/C=C/c2ccc(N(C)C)cc2)cc1)=C(\C)O,12.5 µg/mL,inhibition,-,-,-,H37Rv,76%
Cc1ccc(OC/C(N)=N\NC(=O)c2ccncc2)cc1,-,MIC,-,-,-,H37Rv(ATCC25584),6.25 µg/mL
NNC(=O)c1ccncc1,-,MIC,-,-,-,Clinical isolate 3,0.05 µg/mL
CN1N=C(c2ccncc2)OC1c1cccc(C(F)(F)F)c1,-,MIC,-,-,-,H37Rv,5 µg/mL
O=C(Nc1ccc(Br)cc1)c1cc(Cl)ccc1OS(=O)(=O)c1ccccc1,-,MIC,-,-,21 d,H37Rv,8 µM
CCN(CC)C(=O)COc1cc2c(O)c3c(O)c(C)c4c(c13)C(=O)[C@@](C)(O/C=C/[C@H](OC)[C@@H](C)[C@@H](OC(C)=O)[C@H](C)[C@H](O)[C@H](C)[C@@H](O)[C@@H](C)/C=C/C=C(/C)C(=O)N2)O4,-,MIC,-,-,-,H37RV ATCC9360,0.2 µg/mL
CC(=O)Oc1c(C)c2c(O)c3c1C1=C(OCOC1=C(C)C3=O)/C(C)=C/[C@@](C)(O)[C@H](O)[C@@H](C)[C@@H](O)[C@H](C(=O)O)[C@H](O)[C@H](C)C(O)[C@H](C)/C=C\C=C(/C)C(=O)N2,-,MIC,-,-,-,KM-R,1.6 µg/mL
CC(CN(C)C)CN1c2ccccc2S(=O)(=O)c2ccc(Cl)cc21,-,MIC,-,-,-,H37Rv,256 µg/mL
CN1N=C(c2ccncc2)OC1c1ccc(Cl)cc1,-,MIC,-,-,-,16PI,>20 µg/mL
Cc1cccc(OC/C(N)=N\NC(=O)c2ccncc2)c1,-,MIC,-,-,-,H37Rv(ATCC25584),12.5 µg/mL
O=C(Cc1csc2nc(-c3ccccc3)cn12)N/N=C/c1ccccc1O,-,EC50,-,-,-,H37Rv,>12.5 µg/mL
C[C@H]1COc2c(N3CCN(C)CC3)c(F)cc3c(=O)c(C(=O)O)cn1c23,-,MIC,-,-,-,H37Rv,0.5 µg/mL
O=C(Nc1cccc(F)c1)c1cc(Cl)ccc1OS(=O)(=O)c1ccccc1,-,MIC,-,-,14 d,H37Rv,16 µM
COc1ccc(OC)c(C2OC(c3ccncc3)=NN2C)c1,-,MIC,-,-,-,H37Rv,>20 µg/mL
N/C(COc1cccc(Cl)c1)=N/NC(=O)c1ccncc1,-,MIC,-,-,-,H37Rv(ATCC25584),12.5 µg/mL
COc1cc2c(cc1OC)[C@@H]1C(=O)c3ccc4c(c3O[C@@H]1CO2)C[C@H](C(C)C)O4,-,MIC bound,BACTEC,-,-,H37Rv,>12.5 µg/mL
CCn1cc(C(=O)O)c(=O)c2cc(F)c(N3CCN(c4nnc(SCC(=O)c5ccc(Br)cc5)s4)C(C)C3)c(OC)c21,-,MIC90,broth dilution,-,-,H37Rv,1.5 µg/mL
CN(C)[C@@H]1C(=O)C(C(=O)NCNc2nc3n[nH]nc3c(=O)[nH]2)=C(O)[C@@]2(O)C(=O)C3=C(O)c4c(O)cccc4[C@@](C)(O)[C@H]3C[C@@H]12,-,MIC bound,BACTEC,-,-,H37Rv,>12.5 µg/mL
Nc1ccc(C(=O)O)c(O)c1,-,MIC,-,-,-,Clinical isolate 4,1 µg/mL
CC(CN1c2ccccc2Sc2ccc(Cl)cc21)N(C)C,-,MIC,-,-,-,H37Rv,256 µg/mL
COc1cccc(/C=N/NC(=O)Cc2csc3nc(-c4ccccc4)cn23)c1,12.5 µg/mL,inhibition,-,-,-,H37Rv,47%
CCc1cc(C(N)=S)ccn1,-,MIC,-,-,-,131-4,0.63 µg/mL
NC1[C@H]2CN(c3nc4c(cc3F)c(=O)c(C(=O)O)cn4-c3ccc(F)cc3F)C[C@@H]12,-,MIC,-,-,-,H37Rv,16 µg/mL
COc1cc(C2CC(c3ccc(O)c(C)c3)=NO2)ccc1O,-,MIC,-,-,-,INH-resistant M. tuberculosis,6.25 µM
CC(Sc1ncnc2c1cnn2COCCO)C(N)=O,-,MIC,-,-,-,H37Rv,>6.25 µg/mL
O=C(Nc1cccc(Cl)c1)c1ccc(Cl)cc1OS(=O)(=O)c1ccccc1,-,MIC,-,-,21 d,H37Rv,16 µM
CC1=C(CCC(C)CO)OC2CC3C4CCC5CC(O)CCC5(C)C4CCC3(C)C12,-,MIC bound,BACTEC,-,-,H37Rv,>12.5 µg/mL
O=C(Nc1cccc(Cl)c1)c1cc(Cl)ccc1OS(=O)(=O)c1ccccc1,-,MIC,-,-,21 d,H37Rv,4 µM
COC(=O)/C=C/C(=O)c1ccc(C(C)(C)C)cc1,-,MIC,-,-,-,-,0.8 µg/mL
N=c1c2ccccc2sc2nc3ccccc3n12,6.25 µg/mL,inhibition,-,-,-,H37Rv,-8%
O=C(Cc1csc2nc(-c3ccccc3)cn12)N/N=C/c1ccc([N+](=O)[O-])o1,-,MIC,-,-,-,H37Rv,>12.5 µg/mL
O=C(O)c1cnccn1,50 µg/mL,inhibition,-,-,-,H37Ra,60%